Source: patent publication US10947274B1 (priority 2018, dated 2021)

Chains of the proteins cited; added tags and fusions are not shown. Residues count along the entry.
UniProt Q9GZZ6, 25-450 limits assumed: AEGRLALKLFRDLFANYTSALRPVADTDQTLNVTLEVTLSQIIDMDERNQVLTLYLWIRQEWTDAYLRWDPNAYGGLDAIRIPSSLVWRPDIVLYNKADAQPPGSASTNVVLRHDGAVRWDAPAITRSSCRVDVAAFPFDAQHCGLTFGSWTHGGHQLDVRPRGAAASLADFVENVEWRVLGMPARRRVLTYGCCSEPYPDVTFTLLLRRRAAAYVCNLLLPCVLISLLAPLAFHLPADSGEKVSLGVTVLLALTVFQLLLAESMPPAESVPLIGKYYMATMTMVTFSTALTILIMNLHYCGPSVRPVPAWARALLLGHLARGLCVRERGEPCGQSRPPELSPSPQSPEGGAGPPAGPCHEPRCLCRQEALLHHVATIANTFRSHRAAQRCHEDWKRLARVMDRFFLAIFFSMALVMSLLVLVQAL
UniProt Q9UGM1, 26-479 limits assumed: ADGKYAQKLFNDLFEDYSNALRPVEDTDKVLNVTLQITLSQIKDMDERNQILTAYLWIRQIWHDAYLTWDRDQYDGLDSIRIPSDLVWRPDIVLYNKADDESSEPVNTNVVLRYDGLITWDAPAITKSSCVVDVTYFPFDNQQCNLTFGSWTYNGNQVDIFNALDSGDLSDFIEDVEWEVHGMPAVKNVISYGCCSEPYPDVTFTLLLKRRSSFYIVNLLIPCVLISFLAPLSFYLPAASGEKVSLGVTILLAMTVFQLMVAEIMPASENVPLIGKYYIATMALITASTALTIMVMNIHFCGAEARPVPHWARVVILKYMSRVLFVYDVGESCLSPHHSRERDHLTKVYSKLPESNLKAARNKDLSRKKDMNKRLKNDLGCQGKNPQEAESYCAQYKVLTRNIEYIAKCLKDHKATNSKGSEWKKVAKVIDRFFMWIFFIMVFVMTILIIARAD

Biological target: human α9α10 nAChR (Homo sapiens, UniProt Q9GZZ6+Q9UGM1)
Assay: Block of acetylcholine response at cloned human α9α10 nAChR expressed in Xenopus oocytes (voltage clamp)
[1] = Table 1, human α9α10 nAChR in Xenopus oocytes
[2] = average response at peptide concentration 1000 nM
[3] = average response at peptide concentration 100 nM

| Compound | IC50 [1] [nM] | Ave Resp. (Concen., nM) [2] [%] | further results |
| --- | --- | --- | --- |
| C[C@@H](O)[C@@H]1NC(=O)[C@H]2NC(=O)[C@@H](NC(=O)CN)CSSC[C@H](NC(=O)[C@H](CCCNC(=N)N)NC(=O)[C@@H]3CCCN3C(=O)[C@H](CC(=O)O)NC1=O)C(=O)N[C@@H](CCCNC(N)=O)C(=O)N[C@@H](Cc1ccc(O)c(I)c1)C(=O)N[C@@H](CCC(N)=O)C(=O)N[C@H](C(=O)N[C@H](Cc1ccc(O)cc1)C(=O)N[C@H](CCCNC(=N)N)C(=O)O)CSSC2(C)C | 6.3 | – | – |
| C[C@@H](O)[C@@H]1NC(=O)[C@H]2NC(=O)[C@@H](NC(=O)CN)CSSC[C@H](NC(=O)[C@H](CCCNC(=N)N)NC(=O)[C@@H]3CCCN3C(=O)[C@H](CC(=O)O)NC1=O)C(=O)N[C@@H](CCCNC(=N)N)C(=O)N[C@@H](Cc1ccc(O)c(I)c1)C(=O)N[C@@H](CCC(N)=O)C(=O)N[C@H](C(=O)N[C@H](CC(=O)N[C@H](CCCNC(=N)N)C(=O)O)Cc1ccc(O)cc1)CSSC2(C)C | 0.31 | – | – |
| C[C@@H](O)[C@@H]1NC(=O)[C@@H]2CSSC[C@@H](C(=O)N[C@@H](Cc3ccc(O)cc3)C(=O)O)NC(=O)[C@H](CCC(N)=O)NC(=O)[C@H](Cc3ccc(O)c(I)c3)NC(=O)[C@H](CCCNC(N)=O)NC(=O)[C@@H](NC(=O)[C@H](CCCNC(=N)N)NC(=O)[C@@H]3CCCN3C(=O)[C@H](CC(=O)O)NC1=O)C(C)(C)SSC(C)(C)[C@H](NC(=O)CN)C(=O)N2 | – | 19 | % block (Table 6, at 1000 nM): (19 ± 2.4% |
| C[C@@H](O)[C@@H]1NC(=O)[C@H]2NC(=O)[C@@H](NC(=O)CN)CSSC[C@H](NC(=O)[C@H](CCCNC(=N)N)NC(=O)[C@@H]3CCCN3C(=O)[C@H](CC(=O)O)NC1=O)C(=O)N[C@@H](CCCNC(N)=O)C(=O)N[C@@H](Cc1ccc(O)c(I)c1)C(=O)N[C@@H](CCC(N)=O)C(=O)N[C@H](C(=O)N[C@@H](Cc1ccc(O)cc1)C(=O)N[C@@H](CCCNC(=N)N)C(=O)O)CSSC2(C)C | 1.3 | – | – |
| C[C@@H](O)[C@@H]1NC(=O)[C@@H]2CSSC[C@@H](C(=O)N[C@@H](Cc3ccc(O)cc3)C(=O)O)NC(=O)[C@H](CCC(N)=O)NC(=O)[C@H](Cc3ccc(O)c(I)c3)NC(=O)[C@H](CCCNC(N)=O)NC(=O)[C@@H](NC(=O)[C@H](CCCNC(=N)N)NC(=O)[C@@H]3CCCN3C(=O)[C@H](CC(=O)O)NC1=O)C(C)(C)SSC[C@H](NC(=O)CN)C(=O)N2 | > 1000 | 9.6 | % response (Table 6, at 1000 nM): (9.6 ± 4.3%; IC50 (Table 6, human α9α10 nAChR): > 1000 nM |
| C[C@@H](O)[C@@H]1NC(=O)[C@H]2NC(=O)[C@@H](NC(=O)CN)CSSC[C@H](NC(=O)[C@H](CCCNC(=N)N)NC(=O)[C@@H]3CCCN3C(=O)[C@H](CC(=O)O)NC1=O)C(=O)N[C@@H](CCCNC(=N)N)C(=O)N[C@@H](Cc1ccc(O)c(I)c1)C(=O)N[C@@H](CCC(N)=O)C(=O)N[C@H](C(=O)N[C@H](CC(=O)N[C@@H](CCCNC(=N)N)C(=O)O)Cc1ccc(O)cc1)CSSC2(C)C | – | – | IC50 (human α9α10 nAChR): 0.055 nM |
| C[C@@H](O)[C@@H]1NC(=O)[C@@H]2NC(=O)[C@@H](NC(=O)CN)CSSC[C@H](NC(=O)[C@H](CCCNC(=N)N)NC(=O)[C@@H]3CCCN3C(=O)[C@H](CC(=O)O)NC1=O)C(=O)N[C@@H](CCCNC(N)=O)C(=O)N[C@@H](Cc1ccc(O)c(I)c1)C(=O)N[C@@H](CCC(N)=O)C(=O)N[C@H](C(=O)N[C@@H](Cc1ccc(O)cc1)C(=O)O)CSSC2(C)C | > 1000 | 34 | – |
| C[C@@H](O)[C@@H]1NC(=O)[C@@H]2CSSC[C@@H](C(=O)N[C@@H](Cc3ccc(O)cc3)C(=O)O)NC(=O)[C@H](CCC(N)=O)NC(=O)[C@H](Cc3ccc(O)c(I)c3)NC(=O)[C@H](CCCNC(N)=O)NC(=O)[C@H](CSSC(C)(C)[C@@H](NC(=O)CN)C(=O)N2)NC(=O)[C@H](CCCNC(=N)N)NC(=O)[C@@H]2CCCN2C(=O)[C@H](CC(=O)O)NC1=O | > 100 | – | Ave Resp. (Concen., nM) [3]: 31% |
| C[C@@H](O)[C@@H]1NC(=O)[C@@H]2CSSC(C)(C)[C@H](C(=O)N[C@@H](Cc3ccc(O)cc3)C(=O)O)NC(=O)[C@H](CCC(N)=O)NC(=O)[C@H](Cc3ccc(O)c(I)c3)NC(=O)[C@H](CCCNC(N)=O)NC(=O)[C@H](CSSC[C@H](NC(=O)CN)C(=O)N2)NC(=O)[C@H](CCCNC(=N)N)NC(=O)[C@@H]2CCCN2C(=O)[C@H](CC(=O)O)NC1=O | > 100 | – | Ave Resp. (Concen., nM) [3]: 20% |
